PubChem BioAssay AID624099 | ICCB-Longwood – 2012
Screen: 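Human genes that papillomavirus E2 requires to repress the HPV18 LCR promoter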 (primary screen). System: human C33A cervical carcinoma cells (HPV-negative) stably expressing BPV1 E2 and an HPV18 LCR luciferase reporter. Reagent: siRNA pool against human genes, 40 nM. Duration: 72 h. Detection: 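HPV18 LCR reporter light per well, converted to plate-wise z-scores that exclude control wells, and averaged over triplicate plates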. Reading the numbers: mean z-score and z-score: higher = stronger reporter signal, weaker E2 silencing. Call rule: 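Mean z ≥ 2 together with z ≥ 2 in two or more of the three replicates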.
Shown is one part, drawn at random, of about 21,000 deposited reagents. In the full data, 497 (2.4%) got an active call. 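Higher z means weaker E2 silencing; only reporter increases were scored, and knock-downs that hurt cell survival may mask genuine repressor factors.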 Entries without a mark were called inactive. Reagents against one gene are numbered here.

The opening 2 entries as a preview:
| gene | pool no. | mean z-score | z-score, replicate A | z-score, replicate B | z-score, replicate C |
| --- | --- | --- | --- | --- | --- |
| DCAF4L2 | 1 | 1.11 | 0.97 | 1.04 | 1.31 |
| KCNAB1 | 1 | 0.49 | 0.76 | 0.44 | 0.27 |

The list itself, from the first entry:
| gene | pool no. | mean z-score | z-score, replicate A | z-score, replicate B | z-score, replicate C |
| --- | --- | --- | --- | --- | --- |
| DCAF4L2 | 1 | 1.11 | 0.97 | 1.04 | 1.31 |
| KCNAB1 | 1 | 0.49 | 0.76 | 0.44 | 0.27 |
| SIGLEC15 | 1 | -0.15 | -0.27 | -0.14 | -0.04 |
| CTNNAL1 | 1 | -0.78 | -0.7 | -0.93 | -0.7 |
| SPINK13 | 1 | -0.18 | -0.04 | -0.25 | -0.24 |
| RIC8B | 1 | 0.82 | 1.12 | 0.95 | 0.4 |
| TTLL4 | 1 | 0.39 | 0.43 | 0.29 | 0.46 |
| FSCN1 | 1 | 0.19 | 0.47 | -0.04 | 0.14 |
| PTCD1 | 1 | -1.29 | -1.53 | -1.46 | -0.89 |
| SLC9C2 | 1 | -0.19 | -0.42 | -0.23 | 0.08 |
| UNC80 | 1 | -1.75 | -1.69 | -1.94 | -1.62 |
| UNC80 | 2 | 0.17 | 0.13 | 0.19 | 0.2 |
| CCR8 | 1 | 1.4 | 1.54 | 1.14 | 1.51 |
| MINDY1 | 1 | 0.81 | 0.77 | 0.78 | 0.87 |
| SUMO1P1 | 1 | 1.42 | 1.68 | 1.24 | 1.33 |
| LOC130839 (retired record) | 1 | 0.19 | 0.27 | 0.02 | 0.29 |
| CCT8L1P | 1 | -1.24 | -1.4 | -1.3 | -1.04 |
| CCT8L1P | 2 | -0.85 | -1.01 | -0.55 | -0.99 |
| HEBP1 | 1 | -0.69 | -0.86 | -0.74 | -0.48 |
| LYPLA2 | 1 | 0 | 0.19 | 0.12 | -0.3 |
| NRDE2 | 1 | -0.2 | -0.33 | -0.15 | -0.13 |
| OR4D10 | 1 | 1.58 | 2.07 | 1.22 | 1.46 |
| ACVR1C | 1 | -0.67 | -0.47 | -0.66 | -0.88 |
| GOLGA4 | 1 | 0.24 | 0.32 | 0.02 | 0.38 |
| LRRC3 | 1 | -0.52 | -0.13 | -0.73 | -0.71 |
| LRRC3 | 2 | 0.81 | 0.54 | 1.14 | 0.75 |
| SDR9C7 | 1 | -0.41 | -0.28 | -0.52 | -0.43 |
| TBX4 | 1 | -0.46 | -0.57 | -0.5 | -0.3 |
| SARAF | 1 | 0.67 | 0.48 | 0.91 | 0.61 |
| SUCNR1 | 1 | -1.26 | -1.06 | -1.47 | -1.24 |
| LINC00898 | 1 | -0.06 | -0.27 | -0.51 | 0.6 |
| TLR2 | 1 | 0.14 | 0.33 | 0.04 | 0.04 |
| SOCS4 | 1 | -0.68 | -1.01 | -0.54 | -0.5 |
| C1RL-AS1 | 1 | 0.39 | 0.23 | 0.55 | 0.39 |
| CCNYL1 | 1 | 0.49 | 0.39 | 0.67 | 0.41 |
| DERL2 | 1 | -0.26 | -0.31 | -0.13 | -0.34 |
| LOC387648 (retired record) | 1 | -0.54 | -0.69 | -0.41 | -0.53 |
| THAP11 | 1 | 0.7 | 0.98 | 0.54 | 0.59 |
| TM4SF18 | 1 | 0.34 | 0.56 | 0.45 | -0.01 |
| TOB2 | 1 | -0.21 | -0.08 | -0.09 | -0.47 |
| NMNAT3 | 1 | 0.1 | 0.45 | 0.04 | -0.2 |
| TBC1D3P1-DHX40P1 | 1 | 0.37 | 0.36 | 0.36 | 0.38 |
| TERF2 | 1 | 0.57 | 0.48 | 0.57 | 0.66 |
| RPS17P6 | 1 | 0.16 | 1.1 | -0.42 | -0.21 |
| SYNE4 | 1 | -0.18 | -0.18 | -0.24 | -0.12 |
| BMP2 | 1 | 1.46 | 1.2 | 1.45 | 1.72 |
| IBTK | 1 | -0.93 | -1.07 | -0.71 | -1.02 |
| SCN4A | 1 | 0.57 | 0.62 | 0.67 | 0.4 |
| POTEE | 1 | -0.85 | -0.64 | -0.87 | -1.06 |
| CCNJ | 1 | 1.96 | 1.41 | 2.59 | 1.87 |
| MCM6 | 1 | -0.09 | 0.09 | 0.08 | -0.43 |
| CT83 | 1 | -1.21 | -1.28 | -0.92 | -1.44 |
| PHTF2 | 1 | -1.2 | -1.1 | -1.25 | -1.26 |
| PTH1R | 1 | 0.85 | 0.88 | 0.61 | 1.04 |
| ZCCHC8 | 1 | 1.38 | 1.6 | 1.28 | 1.26 |
| CFTR | 1 | 0.43 | 0.14 | 0.63 | 0.52 |
| NEUROD2 | 1 | -0.41 | -0.69 | -0.11 | -0.42 |
